Results of unrelated studies side by side (data: NIAID ChemDB).

All rows: tests in culture; agent: Candida parapsilosis; measure: MIC

Blank or dashed fields: not listed here. Two numbers with a dash give a range or band. Conditions beyond the fields shown may differ between rows.

smiles	strain or isolate	value
Cc1ccc(/C=N/Nc2ccnc3cc(Cl)ccc23)cc1	-	40 µg/mL
CC(C)=CCC/C(C)=C/CN(C)C(=N)N(C)C/C=C(\C)CCC=C(C)C	ATCC 22019	31.2 µg/mL
O/N=C\c1cccs1	-	3930 µM
CC(C)=CCC/C(C)=C/CN=C(N)NC/C=C(\C)CCC=C(C)C	ATCC 22019	31.2 µg/mL
O=c1[nH][nH]c2c1C(c1ccccc1)CC(c1ccc3ccccc3c1)=C2	-	50 µg/mL
CCOC(=O)C1C(=O)C=C(c2ccc(Cl)cc2)CC1c1ccc(C2CC(c3ccc(Cl)cc3)=CC(=O)C2C(=O)OCC)cc1	Clinical isolate	12.5 µg/mL
COC(=O)c1c(C)oc2cc(C(=O)C(Cl)Cl)c(O)c(Cl)c12	ATCC 22019	100 µg/mL
O/N=C/c1ccc(O)cc1	-	>7290 µM
COc1ccc(C2CC(c3ccc4ccccc4c3)=Cc3[nH][nH]c(=O)c32)cc1	-	200 µg/mL
Cn1cccc1CC(=O)NNC(=O)NCCCCCCNC(=O)NNC(=O)Cc1cccn1C	-	7.5 µg/mL
CCOC(=O)C1C(=O)C=C(c2ccccc2)CC1c1ccc(C2CC(c3ccccc3)=CC(=O)C2C(=O)OCC)cc1	Clinical isolate	100 µg/mL
C[C@@H](N1CCc2nc(-c3ccsc3)sc2C1)[C@](O)(C[n+]1cnc[nH]1)c1ccc(F)cc1F	22019	1 µg/mL
CC(=O)NNC(=O)NCCCCCCNC(=O)NNC(C)=O	-	7.5 µg/mL
O/N=C\c1ccccc1Cl	-	1410 µM
COc1cc2oc(=O)ccc2cc1CC(O)C(C)(C)O	-	>250 µg/mL
C[C@@H]1[C@H](O)[C@@H](C)/C=C/C=C/C=C/C=C/C=C/C=C/C=C/[C@H](O[C@@H]2O[C@H](C)[C@@H](O)[C@H](N)[C@@H]2O)C[C@@H]2O[C@](O)(C[C@@H](O)C[C@@H](O)[C@H](O)CC[C@@H](O)C[C@@H](O)CC(=O)O[C@H]1C)C[C@H](O)[C@H]2C(=O)O	ATCC 22019	1.6–3.1 µM
COc1ccc(/C=N/O)cc1	-	3310 µM
CCOC(=O)C1C(=O)C=C(c2ccc(C)cc2)CC1c1ccc(C2CC(c3ccc(C)cc3)=CC(=O)C2C(=O)OCC)cc1	Clinical isolate	200 µg/mL
C[C@H]1[C@H](O)[C@@H](C)/C=C/C=C/C=C/C=C/C=C/C=C/C=C/[C@H](O[C@@H]2O[C@H](C)[C@@H](O)[C@H](N)[C@@H]2O)C[C@@H]2O[C@](O)(C[C@@H](O)C[C@@H](O)CC[C@H](O)[C@@H](O)C[C@@H](O)CC(=O)O[C@H]1C)C[C@H](O)[C@H]2C(=O)O	ATCC 22019	1.4 µg/mL
C/C(=N/O)C(Cl)(Cl)Cl	-	3220 µM
O=c1[nH]nc(-c2ccccc2)n1CCCCCCn1c(-c2ccccc2)n[nH]c1=O	-	7.5 µg/mL

Again, the opening 3 rows:

smiles,strain or isolate,value
Cc1ccc(/C=N/Nc2ccnc3cc(Cl)ccc23)cc1,-,40 µg/mL
CC(C)=CCC/C(C)=C/CN(C)C(=N)N(C)C/C=C(\C)CCC=C(C)C,ATCC 22019,31.2 µg/mL
O/N=C\c1cccs1,-,3930 µM